# Test results as given in PubChem BioAssay AID1986 (Sanford-Burnham Center for Chemical Genomics, 2009).
# The list shows a part of the results, in another mix than the full data. Some structures show a salt or complex split into parts, the way the source records it. Calls of active or inactive are those of the source. Cut-off read from the data, not from the text of the source: active = inhibition mostly above about 52% (no sharp cut-off); inactive = mostly below about 76%.
# Experiment: cell-free HIV fusion peptide-binding blockers – biochemical, uHTS, fluorescence dequenching, primary screen (AID 1986)
# Settings: HIV Env-mediated cell-cell fusion, fluorescence reporter; at 20 µM; stronger effect = higher value
row,Compound,inhibition
1,CP(=S)(Nn1cnnc1)Oc1ccccc1 (stereo not given),inactive: 1.4%
2,CP(=O)(Nc1ccccc1Br)Oc1ccccc1 (stereo not given),inactive: -0.2%
3,COc1ccccc1OP(C)(=O)Nc1ccccc1 (stereo not given),inactive: -1%
4,Cc1cccc(C)c1OP(C)(=O)Nc1ccc(SC(F)(F)F)cc1 (stereo not given),inactive: 1.1%
5,CP(=O)(Nc1ccc(SC(F)(F)F)cc1)Oc1ccc(Cl)cc1 (stereo not given),inactive: 1.5%
6,CP(=O)(Oc1ccccc1)OC(c1ccccc1)C(F)(F)F (stereo not given),inactive: -1.7%
7,CCc1ccc(OP(C)(=O)N2CCN(c3ccc([N+](=O)[O-])cc3)CC2)cc1 (stereo not given),inactive: -1.8%
8,CP(=O)(NC(=O)Nc1ccccc1)Oc1ccccc1 (stereo not given),inactive: 0.8%
9,Cc1cc(C)cc(OP(C)(=O)Nc2ccc(SC(F)(F)F)cc2)c1 (stereo not given),inactive: 2.3%
10,CCOC(=O)c1ccc(NP(C)(=O)Oc2ccc(OC)cc2)cc1 (stereo not given),inactive: 5.6%
11,CCOP(C)(=S)SCC(=O)NC(C)C(=O)O (stereo not given),inactive: -3.3%
12,CP(=O)(Nc1ccccn1)Oc1ccc(Cl)cc1 (stereo not given),inactive: -0.6%
13,CCN(CC)CCCOC(=O)C(O)(c1ccccc1)c1ccccc1,inactive: -1.1%
14,O=[N+]([O-])c1ccc2c(c1)C=Nc1ccccc1O2,inactive: -2.6%
15,CC(C)(C)c1ccc(OP(C)(=O)Nc2ccc(SC(F)(F)F)cc2)cc1 (stereo not given),inactive: 4.6%
16,Cc1cccc(C)c1OP(C)(N)=O (stereo not given),inactive: -0.5%
17,COc1ccccc1OP(C)(=O)Nc1ccc(C)cc1 (stereo not given),inactive: 1%
18,Cc1ccc(NP(C)(=O)Oc2ccccc2)c(C)c1 (stereo not given),inactive: -2.6%
19,CCOC(=O)c1ccc(NP(C)(=O)Oc2ccccc2)cc1 (stereo not given),inactive: -1.9%
20,Cc1cc(C)cc(OP(C)(N)=O)c1 (stereo not given),inactive: -3.3%
21,COc1ccccc1OP(C)(=O)Nc1cc(Cl)ccc1C (stereo not given),inactive: -0.9%
22,COc1ccc(OP(C)(=O)Nc2cccc(F)c2)cc1 (stereo not given),inactive: -1.4%

row,Compound,inhibition
1,O=C(O)c1cccc(Nc2c([N+](=O)[O-])cc([N+](=O)[O-])cc2[N+](=O)[O-])c1,inactive: -2.1%
2,CC1=NCCc2c1[nH]c1ccccc21.O=[N+]([O-])c1cc([N+](=O)[O-])c(O)c([N+](=O)[O-])c1,inactive: 3.9%
3,COc1ccccc1OP(C)(=O)Nc1cccc(Br)c1 (stereo not given),inactive: 2.1%
4,CCOC(=O)c1ccc(NP(C)(=O)Oc2cc(C)cc(C)c2)cc1 (stereo not given),inactive: 1.5%
5,Cc1cc(C)cc(OP(C)(=O)Nc2ccc(C)cc2C)c1 (stereo not given),inactive: -0.8%
6,Cc1ccc(C)c(NP(C)(=O)Oc2ccccc2)c1 (stereo not given),inactive: -1.4%
7,CP(=O)(Nc1cccc(Br)c1)Oc1ccccc1 (stereo not given),inactive: -1.6%
8,Cc1cc(C)cc(OP(C)(=O)Nc2ccccn2)c1 (stereo not given),inactive: 2%
9,O=[N+]([O-])c1cc([N+](=O)[O-])c(-n2nnc3ccccc32)c([N+](=O)[O-])c1,inactive: 0.2%
10,Cc1nc2ccc3ccccc3c2s1.O=[N+]([O-])c1cc([N+](=O)[O-])c(O)c([N+](=O)[O-])c1,inactive: -3.7%
11,O=[N+]([O-])c1cc([N+](=O)[O-])c(Nc2nnnn2CCO)c([N+](=O)[O-])c1,inactive: -3.9%
12,CCOC(=O)C(CC)C1=NC(C)(C)Cc2ccccc21.O=[N+]([O-])c1cc([N+](=O)[O-])c(O)c([N+](=O)[O-])c1 (stereo not given),inactive: 0.6%
13,COc1ccccc1OP(C)(=O)Nc1c(C)cccc1C (stereo not given),inactive: 2.6%
14,CN1CCCCC1COC(=O)C1(O)c2ccccc2CCc2ccccc21 (stereo not given),inactive: -0.9%
15,CP(=O)(Nc1ccc(SC(F)(F)F)cc1)Oc1ccccc1 (stereo not given),inactive: -1.9%
16,CCCOc1ccc(NP(C)(=O)Oc2ccc(Cl)cc2)cc1 (stereo not given),inactive: -1.3%
17,COc1ccc(OP(C)(=O)Nc2cccc(Br)c2)cc1 (stereo not given),inactive: 0.2%
18,CN(C)CCOC(=O)C(O)(c1ccccc1)C1CCCCC1 (stereo not given),inactive: 3.2%
19,COc1ccc(NP(C)(=O)Oc2ccccc2OC)cc1 (stereo not given),inactive: -0.8%
20,O=[N+]([O-])c1ccc(OP2(=O)COCCO2)cc1 (stereo not given),inactive: -0.7%
21,O=[N+]([O-])c1cc([N+](=O)[O-])c(NCC2CCS(=O)(=O)C2)c([N+](=O)[O-])c1 (stereo not given),inactive: -4.2%
22,Cc1cc(-c2cccc3ccccc23)c(C)cn1.O=[N+]([O-])c1cc([N+](=O)[O-])c(O)c([N+](=O)[O-])c1,inactive: -0.8%

row,Compound,inhibition
1,CP(=O)(Nc1ccc(SC(F)(F)F)cc1)Oc1ccc(F)cc1 (stereo not given),inactive: 0.8%
2,CCOP(C)(=S)SCC(=O)NC(C)(CC)C(=O)O (stereo not given),inactive: -1.3%
3,CP(=O)(Nc1ccc2c(c1)OCCO2)Oc1ccccc1 (stereo not given),inactive: -1.7%
4,Cc1ccccc1NP(C)(=O)Nc1ccccc1C,inactive: -0.2%
5,CP(=O)(Nc1ccccc1F)Oc1ccccc1 (stereo not given),inactive: 2.3%
6,CC(C)c1ccc(OP(C)(=O)Nc2ccc(SC(F)(F)F)cc2)cc1 (stereo not given),inactive: 1.2%
7,O=C(OC1CN2CCC1CC2)c1ccc([N+](=O)[O-])cc1 (stereo not given),inactive: -1.2%
8,O=C(OCCN1CCN(CCOCc2ccccc2)CC1)C(O)(c1ccccc1)c1ccccc1,inactive: -1%
9,COc1ccc2c(c1O)-c1c(O)c(OC)cc3c1[C@H](C2)[N+](C)(C)CC3.O=[N+]([O-])c1cc([N+](=O)[O-])c([O-])c([N+](=O)[O-])c1[O-],inactive: 2.7%
10,CCOC(=O)c1ccc(NP(C)(=O)Oc2ccc(F)cc2)cc1 (stereo not given),inactive: -3.2%
11,COc1ccc(OP(C)(=O)Nc2ccc(SC(F)(F)F)cc2)cc1 (stereo not given),inactive: 0.5%
12,CCN(CC)CCCOC(=O)C(O)(c1ccccc1)C1CCCCC1 (stereo not given),inactive: 0%
13,CP(=O)(Nc1ccccc1)Oc1ccc(F)cc1 (stereo not given),inactive: -0.3%
14,CCCCCOc1ccc(NP(C)(=O)Oc2ccc(Cl)cc2Cl)cc1 (stereo not given),inactive: -0.5%
15,O=[N+]([O-])c1cc([N+](=O)[O-])c(OC2CCCCC2O)c([N+](=O)[O-])c1 (stereo not given),inactive: 3.3%
16,Cc1cc(C)cc(OP(C)(=O)Nc2cccc(C(F)(F)F)c2)c1 (stereo not given),inactive: -1.1%
17,COc1ccccc1OP(C)(=O)Nc1ccc(C)c(C)c1 (stereo not given),inactive: 1%
18,COc1ccc(OP(C)(=O)Nc2ccccc2Br)cc1 (stereo not given),inactive: 3%
19,Cc1nc2ccc3ccccc3c2o1.O=[N+]([O-])c1cc([N+](=O)[O-])c(O)c([N+](=O)[O-])c1,inactive: 21.9%
20,CP(=O)(OCCOc1ccccc1)OCCOc1ccccc1,inactive: 0.5%
21,CP(=O)(Nc1ccc(Cl)cc1Cl)Oc1ccccc1 (stereo not given),inactive: -1.9%
22,COc1ccccc1OP(C)(=O)Nc1ccc(Br)cc1 (stereo not given),inactive: -2%

row,Compound,inhibition
1,COc1ccc(OP(C)(=O)Nc2ccccn2)cc1 (stereo not given),inactive: -0.4%
2,CN(C)CCOC(=O)C(O)(c1ccccc1)C1CCCC1 (stereo not given),inactive: 2.3%
3,O=[N+]([O-])c1cc([N+](=O)[O-])c(Nc2ccccn2)c([N+](=O)[O-])c1,inactive: -3%
4,Cc1c(NP(C)(=O)Oc2ccc(C(C)C)cc2)c(=O)n(-c2ccccc2)n1C (stereo not given),inactive: 1.3%
5,CP(=O)(Nc1ccccn1)Oc1ccccc1 (stereo not given),inactive: 2%
6,COc1ccccc1OP(C)(=O)Nc1ccc(C)cc1C (stereo not given),inactive: -2.2%
7,CCc1ccc(OP(C)(=O)O)cc1,inactive: -1%
8,CCN(CC)CC(O)COC(=O)C(O)(c1ccccc1)C1CCCCC1 (stereo not given),inactive: 1.3%
9,COc1ccc(OP(C)(=O)Nc2ccc(Br)cc2)cc1 (stereo not given),inactive: 0.4%
10,COc1ccccc1OP(C)(=O)Nc1c(C)n(C)n(-c2ccccc2)c1=O (stereo not given),inactive: 0.1%
11,O=C(OCCCN1CCCC1)C(O)(c1ccccc1)C1CCCCC1 (stereo not given),inactive: 0.6%
12,CP(=O)(Oc1ccccc1)N1CCOC1=O (stereo not given),inactive: 0.8%
13,CCc1ccc(OP(C)(=O)Nc2cccnc2)cc1 (stereo not given),inactive: 1.1%
14,CC(C)(C)c1ccc(OP(C)(=O)O)cc1,inactive: 2%
15,COc1ccccc1OP(C)(=O)Nc1ccccc1Br (stereo not given),inactive: 0.5%
16,CP(=O)(Nc1ccc(Cl)cc1)Oc1ccc(F)cc1 (stereo not given),inactive: 0.8%
17,CN(C)C(=O)c1c([N+](=O)[O-])cc([N+](=O)[O-])cc1[N+](=O)[O-],inactive: -1.4%
18,CCOC(=O)c1ccc(NP(C)(=O)Oc2ccc(Cl)cc2)cc1 (stereo not given),inactive: 1.2%
19,CP(=O)(OC12CC3CC(CC(C3)C1)C2)OC12CC3CC(CC(C3)C1)C2,inactive: 1.2%
